From paper PMC6429459 (International Journal of Molecular Sciences, 2019)
* marks the point of attachment. AMC = Cc1cc(=O)oc2cc(N*)ccc12; Cbz = O=C(OCc1ccccc1)*

Test: general procedure: Fmoc solid-phase peptide synthesis; Wang-polystyrene resin loaded with Fmoc-Leu-OH or Fmoc-Ala-OH (0.6 mmol/g); 2-chlorotrityl chloride polystyrene resin (1); HBTU/DIEA (manual); HATU/DIEA (automated)
Details: coupling step

Cbz-EVNL-{AMC} (SMILES Cc1cc(=O)oc2cc(NC(=O)[C@H](CC(C)C)NC(=O)[C@H](CC(N)=O)NC(=O)[C@@H](NC(=O)[C@H](CCC(=O)O)NC(=O)OCc3ccccc3)C(C)C)ccc12)
step yield: 15.2%
